Laboratory results as given in patent US20220257540A1, “COMPOSITIONS AND METHODS FOR TREATMENT OF HEPATITIS B VIRUS INFECTION” (ANHUI RONGHANG BIOTECH DEVELOPMENT CO., LTD., priority 2019, published 2022).

Test system: PXB-cells
Experiment: hAlb and total DNA of HBV-infected PXB-cells
Assay type: cell-based
Conditions: Day 27

COc1cc2c(c(OC)c1OC)-c1ccc(OC)c(=O)cc1[C@@H](NC(C)=O)CC2 [Colchicine, N [5,6,7,9-tetrahydro-1,2,3,10-tetratmethoxy 9-oxobenzo[a]heptalen-7-yl], (S)-acetamide]
Extracellular hAlb (Colchicine 1 nM): 85.3 µg/mL | Extracellular hAlb (Colchicine 2 nM): 89.3 µg/mL | Extracellular hAlb (Colchicine 3.9 nM): 85.7 µg/mL | Extracellular hAlb (Colchicine 7.8 nM): 84.6 µg/mL | Extracellular hAlb (Colchicine 15.6 nM): 71.2 µg/mL | Extracellular hAlb (Colchicine 31.3 nM): 20.7 µg/mL | Extracellular hAlb (Colchicine 62.5 nM): <5.0 µg/mL | Extracellular hAlb (Colchicine 125 nM): <5.0 µg/mL | Extracellular hAlb (Colchicine 250 nM): <5.0 µg/mL | Extracellular hAlb (Colchicine 500 nM): <5.0 µg/mL | Extracellular hAlb (Colchicine 1000 nM): <5.0 µg/mL

C=C1[C@H](CO)[C@@H](O)C[C@@H]1n1cnc2c(=O)[nH]c(N)nc21 [Entecavir]
Extracellular hAlb (Entecavir 9.8 pM): 90.9 µg/mL | Extracellular hAlb (Entecavir 19.5 pM): 91.2 µg/mL | Extracellular hAlb (Entecavir 39.1 pM): 92.8 µg/mL | Extracellular hAlb (Entecavir 78.1 pM): 92.1 µg/mL | Extracellular hAlb (Entecavir 156.3 pM): 92.2 µg/mL | Extracellular hAlb (Entecavir 312.5 pM): 94.6 µg/mL | Extracellular hAlb (Entecavir 625 pM): 95.2 µg/mL | Extracellular hAlb (Entecavir 1.25 nM): 92.0 µg/mL | Extracellular hAlb (Entecavir 5 nM): 93.7 µg/mL | Extracellular hAlb (Entecavir 10 nM): 86.2 µg/mL
